Where a SMILES comes first, the peptide text is derived from it. The star is where a group is joined. Myristoyl = CCCCCCCCCCCCCC(=O)*
Experiments:
Type in all cases: physicochemical
[1] = Quenching of Trp-1 fluorescence by acrylamide in lipid vesicles; conditions: for fa (fraction accessible to the quencher) / NAF (Net Accessibility Factor): POPC LUVs; for KSV (Stern–Volmer constant): POPC LUVs 400 μM (myristoylated) or 1.0 mM (non-myristoylated), peptide 2.0 μM; for NAF (Net Accessibility Factor): (KSV)LUV/(KSV)Buffer
[2] = as above; conditions: for fa (fraction accessible to the quencher) / NAF (Net Accessibility Factor): POPC/POPG LUVs; for KSV (Stern–Volmer constant): POPC/POPG LUVs 400 μM (myristoylated) or 1.0 mM (non-myristoylated), peptide 2.0 μM; for NAF (Net Accessibility Factor): (KSV)LUV/(KSV)Buffer
[3] = Quenching of Trp-1 fluorescence by acrylamide in buffer; conditions: for KSV (Stern–Volmer constant): peptide 2.0 μM, pH 7.4, 298 K
[4] = Circular dichroism, fractional helical content; conditions: CD ellipticity at 222 nm, POPC/POPG lipid vesicles, L/P molar ratio of 40, 30 μM lipopeptide, 10 mM phosphate pH 7.4, 298 K

SMILES | fa (fraction accessible to the quencher) [1] | KSV (Stern–Volmer constant) [1] | NAF (Net Accessibility Factor) [1] | fa (fraction accessible to the quencher) [2] | KSV (Stern–Volmer constant) [2] | NAF (Net Accessibility Factor) [2] | fa (fraction accessible to the quencher) [3] | KSV (Stern–Volmer constant) [3] | helical fraction fα [4] | Ka (average Stern–Volmer constant for the accessible fluorophore) ([3]; modified Stern–Volmer equation)
CCCCCCCCCCCCCC(=O)N[C@@H](Cc1c[nH]c2ccccc12)C(=O)N[C@@H](Cc1ccccc1)C(=O)NCC(=O)N[C@@H](CCCCN)C(=O)N[C@@H](CC(C)C)C(=O)N[C@@H](Cc1ccc(O)cc1)C(=O)N[C@@H](CCCNC(=N)N)C(=O)NCC(=O)N[C@H](C(=O)N[C@H](C(=O)N[C@@H](CCCCN)C(=O)O)[C@@H](C)O)[C@@H](C)CC [Myr-A] (Myristoyl-WFGKLYRGITK-OH; C-terminus assumed) | 1 | 2.1 ± 0.2 M⁻¹ | 0.26 | 1 | 2.9 ± 0.1 M⁻¹ | 0.36 | 1 | 8.0 ± 0.1 M⁻¹ | ~ 0.2 | –
CCCCCCCCCCCCCC(=O)N[C@@H](Cc1c[nH]c2ccccc12)C(=O)N[C@@H](CCCNC(=N)N)C(=O)NCC(=O)N[C@H](C(=O)N[C@H](C(=O)N[C@@H](CCCCN)C(=O)N[C@H](C(=O)N[C@H](C(=O)N[C@@H](CCCCN)C(=O)N[C@@H](CCCCN)C(=O)N[C@H](C(=O)O)C(C)C)C(C)C)C(C)C)[C@@H](C)O)[C@@H](C)CC [Myr-B] (Myristoyl-WRGITKVVKKV-OH; C-terminus assumed) | 1 | 5.1 ± 0.1 M⁻¹ | 0.15 | 1 | 2.3 ± 0.1 M⁻¹ | 0.07 | 0.92 | – | – | 34.7 ± 0.6 M⁻¹
CCCCCCCCCCCCCC(=O)N[C@@H](Cc1c[nH]c2ccccc12)C(=O)N[C@H](C(=O)N[C@H](C(=O)N[C@@H](CCCCN)C(=O)N[C@@H](CCCCN)C(=O)N[C@H](C(=O)N[C@@H](CCCCN)C(=O)NCC(=O)N[C@@H](CC(C)C)C(=O)N[C@@H](CC(C)C)C(=O)N[C@@H](CCCCN)C(=O)O)C(C)C)C(C)C)C(C)C [Myr-C] (Myristoyl-WVVKKVKGLLK-OH; C-terminus assumed) | 1 | 4.4 ± 0.1 M⁻¹ | 0.21 | 1 | 2.7 ± 0.1 M⁻¹ | 0.13 | 1 | 20.5 ± 1 M⁻¹ | ~ 0.1 | –

— publication PMC8875392, “Design and Characterization of Myristoylated and Non-Myristoylated Peptides Effective against Candida spp. Clinical Isolates” (International Journal of Molecular Sciences, 2022)
